{"source": "patent US11857581B2", "about": "“Antiviral methods and compositions comprising probiotic bacterial molecules” (priority 2013, dated 2024)", "system": "E. coli O157:H7 strain VS94"}
{"smiles": "CC(C)NCC(O)COc1cccc2ccccc12", "note": "(stereo not drawn) [β-blocker, propanolol]", "values": [{"measurement": "% Adherence", "value": 22, "unit": "%"}]}
